Values joined by “and” are separate entries in the source; they are usually repeats but may differ in a detail not shown here. Equal entries are not always repeated. Where two headings read alike, the source gives them in different places.
Columns and labels:
murine 3-12B12-F4 = conditions: read off a plot
[1] = 0.0061µg/ml (colour key), read off a plot
[2] = 0.012µg/ml (colour key), read off a plot
[3] = 0.037µg/ml (colour key), read off a plot
[4] = 3µg/ml (colour key), read off a plot

Substance	response (murine 3-12B12-F4; 0.0061µg/ml (colour key))	response (murine 3-12B12-F4; 0.012µg/ml (colour key))	response (murine 3-12B12-F4; 0.037µg/ml (colour key))	response (murine 3-12B12-F4; 0.11µg/ml (colour key))	response (murine 3-12B12-F4; 0.33µg/ml (colour key))	response (murine 3-12B12-F4; 1µg/ml (colour key))	response (murine 3-12B12-F4; 3µg/ml (colour key))	response (murine 9-8F2-B11)	response (murine 9-8F2-B11; [1])	response (murine 9-8F2-B11; [2])	response (murine 9-8F2-B11; [3])	response (murine 9-8F2-B11; [4])	response (murine 9-8F2-B11; read off a plot)
WT RBD-6xHis (receptor-binding domain of the SARS-CoV-2 spike protein) D405N	0.2 Abs (405 nm)	0.25 Abs (405 nm)	0.37 Abs (405 nm)	0.6 Abs (405 nm)	0.95 Abs (405 nm)	1.2 Abs (405 nm)	1.3 Abs (405 nm)	1.4 Abs (405 nm)	0.45 Abs (405 nm)	0.77 Abs (405 nm)	1.1 Abs (405 nm)	1.3 Abs (405 nm)	1.3 Abs (405 nm)
WT RBD-6xHis (receptor-binding domain of the SARS-CoV-2 spike protein) L452R	0.1 Abs (405 nm)	0.12 Abs (405 nm)	0.13 Abs (405 nm)	0.2 Abs (405 nm)	0.37 Abs (405 nm)	0.42 Abs (405 nm)	0.72 Abs (405 nm)	2.4 Abs (405 nm) and 2.3 Abs (405 nm)	0.78 Abs (405 nm)	1.3 Abs (405 nm)	1.8 Abs (405 nm)	2.3 Abs (405 nm)	2.1 Abs (405 nm)
WT RBD-6xHis (receptor-binding domain of the SARS-CoV-2 spike protein) Q493R	0.2 Abs (405 nm)	0.58 Abs (405 nm)	1.1 Abs (405 nm)	1.8 Abs (405 nm)	2.1 Abs (405 nm)	2.1 Abs (405 nm)	2.1 Abs (405 nm)	2.1 Abs (405 nm) and 2 Abs (405 nm)	0.63 Abs (405 nm)	1.2 Abs (405 nm)	1.7 Abs (405 nm)	2.1 Abs (405 nm)	2.2 Abs (405 nm)
